Experimental data: paper PMC7046553, “Backbone Cyclization and Dimerization of LL-37-Derived Peptides Enhance Antimicrobial Activity and Proteolytic Stability” (Frontiers in Microbiology, 2020)

Experiment: Circular dichroism, alpha-helical content
Assay type: physicochemical
Conditions: 225 nm; for Alpha helix (%), Buffer: 10 mM Tris buffer pH 7.4, 10 μM peptide; for Alpha helix (%), Micelles: 16:0 lyso-phosphatidylglycerol micelles, 1:1 peptide-to-micelle ratio

| Compound | Alpha helix (%), Buffer [%] | Alpha helix (%), Micelles [%] |
| --- | --- | --- |
| CC[C@H](C)[C@@H]1NC(=O)[C@H](CCCCN)NC(=O)[C@H](CC(=O)O)NC(=O)[C@H](Cc2ccccc2)NC(=O)[C@H](CC(C)C)NC(=O)[C@H](CCCNC(=N)N)NC(=O)CNC(=O)CNC(=O)[C@H](CS)NC(=O)CNC(=O)[C@H](CCCCN)NC(=O)[C@H](CCCNC(=N)N)NC(=O)[C@H]([C@@H](C)CC)NC(=O)[C@H](C(C)C)NC(=O)[C@H](CCC(N)=O)NC(=O)[C@H](CCCNC(=N)N)NC(=O)[C@H]([C@@H](C)CC)NC(=O)[C@H](CCCCN)NC(=O)[C@H](CC(=O)O)NC(=O)[C@H](Cc2ccccc2)NC(=O)[C@H](CC(C)C)NC(=O)[C@H](CCCNC(=N)N)NC(=O)CNC(=O)CNC(=O)[C@H](C)NC(=O)CNC(=O)[C@H](CCCCN)NC(=O)[C@H](CCCNC(=N)N)NC(=O)[C@H]([C@@H](C)CC)NC(=O)[C@H](C(C)C)NC(=O)[C@H](CCC(N)=O)NC(=O)[C@H](CCCNC(=N)N)NC1=O [Peptide 2retro-cd4] (cyclo(CGGRLFDKIRQVIRKGAGGRLFDKIRQVIRKG)) | 30 | 53 |
| KRIVQRIKDFLR [KR-12] | 12 | 52 |

Where a SMILES comes first, the peptide text is derived from it. Where no end group is shown, it is not given here.
